The test system of this data set is VERO cells (ATCC CCL-81). Nature of the data set: Cytotoxicity against VERO cells. The class given is cell-based. The conditions noted are these: SI=IC50/MIC (VERO IC50 / Mtb MIC).

We go through 5 molecules from US20110087037A1, “SYNTHESIS OF RING B ABEO-STEROLS AS NOVEL INHIBITORS OF MYCOBACTERIUM TUBERCULOSIS” (priority 2007, published 2011).

Where only a bound is given, the exact number is not on record here.

`C=C(CC[C@@H](C)[C@H]1CC[C@H]2[C@@H]3C(C=O)=C4C[C@@H](O)CC[C@]4(C)[C@H]3CC[C@]12C)C(C)C` [Compound 2]: the “Selectivity index (SI)” value was 6.5. In the case of `CCC(CCC(C)C1CCC2C3C(C=O)=C4CC(O)CCC4(C)C3CCC12C)C(C)C` (centres unmarked) [Compound 5] it was 7; in that of `CC(C)CCC[C@@H](C)[C@H]1CC[C@H]2[C@@H]3C(C=O)=C4C[C@@H](O)CC[C@]4(C)[C@H]3CC[C@]12C` [Compound 7], > 9; in that of `CC(C)C(C)C1(C)CC1C(C)C1CCC2C3C(C=O)=C4CC(O)CCC4(C)C3CCC12C` (centres unmarked) [Compound 9], 4.3.

As for `CC(C)[C@@H](C)CC[C@@H](C)[C@H]1CC[C@H]2[C@@H]3C(C=O)=C4C[C@@H](O)CC[C@]4(C)[C@H]3CC[C@]12C` [Compound 11], the “Selectivity index (SI)” value was 10.8.
